One molecule from ChEMBL document CHEMBL5537181 (J Med Chem, 2024) can be followed below.

The chains behind the UniProt entries cited, without tags or fusion partners. Where a name states a change or a piece, a line headed by the entry shows the natural chain unless it says otherwise.
UniProt P30926, whole entry, looked up: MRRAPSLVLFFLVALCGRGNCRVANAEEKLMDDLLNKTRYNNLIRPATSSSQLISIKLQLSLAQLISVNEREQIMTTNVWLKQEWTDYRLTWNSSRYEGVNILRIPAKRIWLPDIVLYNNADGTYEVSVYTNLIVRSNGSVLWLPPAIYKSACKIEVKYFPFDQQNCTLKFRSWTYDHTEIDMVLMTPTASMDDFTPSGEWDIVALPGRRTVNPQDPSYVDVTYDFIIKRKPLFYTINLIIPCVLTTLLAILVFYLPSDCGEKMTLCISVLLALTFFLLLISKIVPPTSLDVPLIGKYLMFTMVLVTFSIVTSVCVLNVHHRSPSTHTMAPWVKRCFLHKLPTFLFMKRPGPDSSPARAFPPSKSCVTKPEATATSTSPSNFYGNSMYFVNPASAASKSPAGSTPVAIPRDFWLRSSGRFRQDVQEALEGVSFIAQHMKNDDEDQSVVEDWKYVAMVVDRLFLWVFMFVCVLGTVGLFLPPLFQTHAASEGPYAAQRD
UniProt P32297, whole entry, looked up: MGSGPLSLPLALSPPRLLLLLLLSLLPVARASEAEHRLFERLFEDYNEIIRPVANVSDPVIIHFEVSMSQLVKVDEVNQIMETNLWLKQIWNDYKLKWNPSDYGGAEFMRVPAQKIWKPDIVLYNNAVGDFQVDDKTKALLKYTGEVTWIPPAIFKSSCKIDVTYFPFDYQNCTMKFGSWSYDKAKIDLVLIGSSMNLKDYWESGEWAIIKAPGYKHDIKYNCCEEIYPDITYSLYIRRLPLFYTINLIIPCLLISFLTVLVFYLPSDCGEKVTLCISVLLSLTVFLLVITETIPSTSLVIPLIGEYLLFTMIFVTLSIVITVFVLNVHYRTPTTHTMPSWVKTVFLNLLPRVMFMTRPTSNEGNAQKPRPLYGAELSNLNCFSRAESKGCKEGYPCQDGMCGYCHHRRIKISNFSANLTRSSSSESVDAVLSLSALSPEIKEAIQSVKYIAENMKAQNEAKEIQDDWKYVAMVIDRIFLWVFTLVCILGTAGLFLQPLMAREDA
UniProt P17787, whole entry, looked up: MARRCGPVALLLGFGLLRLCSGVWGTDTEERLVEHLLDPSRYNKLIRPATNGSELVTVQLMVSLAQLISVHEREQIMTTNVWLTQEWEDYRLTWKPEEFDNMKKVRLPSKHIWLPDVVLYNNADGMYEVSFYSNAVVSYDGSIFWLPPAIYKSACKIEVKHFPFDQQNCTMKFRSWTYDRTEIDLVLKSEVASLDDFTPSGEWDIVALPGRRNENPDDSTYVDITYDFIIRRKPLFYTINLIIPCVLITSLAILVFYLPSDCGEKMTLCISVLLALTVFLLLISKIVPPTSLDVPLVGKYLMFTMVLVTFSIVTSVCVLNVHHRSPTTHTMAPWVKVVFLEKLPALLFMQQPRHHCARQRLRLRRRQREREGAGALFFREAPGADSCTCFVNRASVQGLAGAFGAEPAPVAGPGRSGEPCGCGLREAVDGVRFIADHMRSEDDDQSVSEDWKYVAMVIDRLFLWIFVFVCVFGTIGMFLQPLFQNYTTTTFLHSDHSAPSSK
UniProt P43681: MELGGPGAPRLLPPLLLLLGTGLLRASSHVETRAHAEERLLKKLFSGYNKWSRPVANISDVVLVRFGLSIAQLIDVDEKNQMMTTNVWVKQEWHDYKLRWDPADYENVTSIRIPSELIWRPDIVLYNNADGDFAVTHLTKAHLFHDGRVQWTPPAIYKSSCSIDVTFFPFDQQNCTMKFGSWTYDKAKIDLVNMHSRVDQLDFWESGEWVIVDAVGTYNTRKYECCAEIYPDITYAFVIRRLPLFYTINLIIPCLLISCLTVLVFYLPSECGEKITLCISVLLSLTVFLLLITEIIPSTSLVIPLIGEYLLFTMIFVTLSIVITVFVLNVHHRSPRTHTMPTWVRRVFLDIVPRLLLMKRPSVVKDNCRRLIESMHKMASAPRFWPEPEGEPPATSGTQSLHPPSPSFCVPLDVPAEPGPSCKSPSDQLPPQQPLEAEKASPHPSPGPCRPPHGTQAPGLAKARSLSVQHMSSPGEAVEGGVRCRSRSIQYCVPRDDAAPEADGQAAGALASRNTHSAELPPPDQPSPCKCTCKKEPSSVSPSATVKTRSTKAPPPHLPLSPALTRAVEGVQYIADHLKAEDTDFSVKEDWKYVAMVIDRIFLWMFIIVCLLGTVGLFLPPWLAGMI

The target in test [1] is T1, Neuronal acetylcholine receptor; alpha3/beta4 (Homo sapiens) (UniProt P30926+P32297). Briefly: Antagonist activity at human alpha3beta4 nAChR expressed in acetylcholine-induced Xenopus laevis oocytes assessed as inhibition of acetylcholine-induced current at 100 nM by two electrode voltage-clamp assay relative to control. The note with it: Oocyte. Background: Two-electrode voltage clamp is typically applied to oocytes expressing channels or transporters.

The test system of test [2] is Oocyte. The test is described as follows: Antagonist activity at rat alpha1beta1epsilondelta nAChR expressed in acetylcholine-induced Xenopus laevis oocytes assessed as inhibition of acetylcholine-induced current at 100 nM by two electrode voltage-clamp assay.
The subject of test [3] is Oocyte. The test is described as follows: Antagonist activity at human alpha1beta1deltagamma nAChR expressed in acetylcholine-induced Xenopus laevis oocytes assessed as inhibition of acetylcholine-induced current at 30 nM by two electrode voltage-clamp assay relative to control.
In test [4] the target is T2, Neuronal acetylcholine receptor; alpha4/beta2 (Homo sapiens) (UniProt P17787+P43681). The test is described as follows: Antagonist activity at human alpha4beta2 nAChR expressed in acetylcholine-induced Xenopus laevis oocytes assessed as inhibition of acetylcholine-induced current at 100 nM by two electrode voltage-clamp assay relative to control. The note with it: Oocyte.

For test [5], the target named is T2, Neuronal acetylcholine receptor; alpha4/beta2 (Homo sapiens). The test is described as follows: Antagonist activity at human alpha4beta2 nAChR expressed in acetylcholine-induced Xenopus laevis oocytes assessed as inhibition of acetylcholine-induced current at 30 nM by two electrode voltage-clamp assay relative to control. The note with it: Oocyte.
Test [6] deals with Oocyte. The test is described as follows: Antagonist activity at human alpha1beta1epsilondelta nAChR expressed in acetylcholine-induced Xenopus laevis oocytes assessed as inhibition of acetylcholine-induced current at 30 nM by two electrode voltage-clamp assay relative to control.
The subject of test [7] is Oocyte. The test is described as follows: Antagonist activity at human alpha1beta1epsilondelta nAChR expressed in acetylcholine-induced Xenopus laevis oocytes assessed as inhibition of acetylcholine-induced current at 100 nM by two electrode voltage-clamp assay relative to control.
The subject of test [8] is Oocyte. Briefly: Antagonist activity at rat alpha1beta1deltagamma nAChR expressed in acetylcholine-induced Xenopus laevis oocytes assessed as inhibition of acetylcholine-induced current at 100 nM by two electrode voltage-clamp assay.
The target in test [9] is T1, Neuronal acetylcholine receptor; alpha3/beta4 (Homo sapiens). Briefly: Antagonist activity at human alpha3beta4 nAChR expressed in acetylcholine-induced Xenopus laevis oocytes assessed as inhibition of acetylcholine-induced current at 30 nM by two electrode voltage-clamp assay relative to control. The note with it: Oocyte.
Test [10] has as its system Oocyte. Briefly: Antagonist activity at human alpha1beta1deltagamma nAChR expressed in acetylcholine-induced Xenopus laevis oocytes assessed as inhibition of acetylcholine-induced current at 100 nM by two electrode voltage-clamp assay relative to control.

Structures are written as SMILES. Active and inactive are the calls of the source. The rule behind the calls is not given here. Bounds are passed on as bounds.

A word on the inhibition: it is the percentage by which the read-out fell short of the control. Take `CC[C@H](C)[C@H](NC(=O)[C@H](CCCNC(=N)N)NC(=O)[C@H](CCCNC(=N)N)NC(=O)[C@H](Cc1ccc(O)cc1)NC(=O)[C@H](CCCNC(=N)N)NC(=O)[C@H](CCCNC(=N)N)NC(=O)[C@H](CCCNC(=N)N)NC(=O)[C@H](CCCNC(=N)N)NC(=O)[C@H](CC(=O)O)NC(=O)[C@H](Cc1ccc(O)cc1)NC(=O)[C@@H]1CCCN1C(=O)[C@H](CO)NC(=O)[C@H](CCCNC(=N)N)NC(=O)[C@H](Cc1ccc(O)cc1)NC(=O)[C@H](CCCNC(=N)N)NC(=O)CN)C(=O)N[C@H](C(=O)N[C@@H](CC(=O)O)C(N)=O)[C@@H](C)O`: the inhibition (in [1]; in the test on Oocyte [3]; in [4]; in test [5]; with Oocyte [6]; in the test with Oocyte [7]) was below 5% in each case. In addition, the inhibition (in test [9]; in the test with Oocyte [10]) was below 5% throughout. Further, the inhibition entry in the test with Oocyte [2] and with Oocyte [8] was “inactive” throughout.
